Assay results: patent publication US9770500B2 (priority 2011, dated 2017)

Chains of the proteins cited; added tags and fusions are not shown.
UniProt P16154, whole entry, looked up: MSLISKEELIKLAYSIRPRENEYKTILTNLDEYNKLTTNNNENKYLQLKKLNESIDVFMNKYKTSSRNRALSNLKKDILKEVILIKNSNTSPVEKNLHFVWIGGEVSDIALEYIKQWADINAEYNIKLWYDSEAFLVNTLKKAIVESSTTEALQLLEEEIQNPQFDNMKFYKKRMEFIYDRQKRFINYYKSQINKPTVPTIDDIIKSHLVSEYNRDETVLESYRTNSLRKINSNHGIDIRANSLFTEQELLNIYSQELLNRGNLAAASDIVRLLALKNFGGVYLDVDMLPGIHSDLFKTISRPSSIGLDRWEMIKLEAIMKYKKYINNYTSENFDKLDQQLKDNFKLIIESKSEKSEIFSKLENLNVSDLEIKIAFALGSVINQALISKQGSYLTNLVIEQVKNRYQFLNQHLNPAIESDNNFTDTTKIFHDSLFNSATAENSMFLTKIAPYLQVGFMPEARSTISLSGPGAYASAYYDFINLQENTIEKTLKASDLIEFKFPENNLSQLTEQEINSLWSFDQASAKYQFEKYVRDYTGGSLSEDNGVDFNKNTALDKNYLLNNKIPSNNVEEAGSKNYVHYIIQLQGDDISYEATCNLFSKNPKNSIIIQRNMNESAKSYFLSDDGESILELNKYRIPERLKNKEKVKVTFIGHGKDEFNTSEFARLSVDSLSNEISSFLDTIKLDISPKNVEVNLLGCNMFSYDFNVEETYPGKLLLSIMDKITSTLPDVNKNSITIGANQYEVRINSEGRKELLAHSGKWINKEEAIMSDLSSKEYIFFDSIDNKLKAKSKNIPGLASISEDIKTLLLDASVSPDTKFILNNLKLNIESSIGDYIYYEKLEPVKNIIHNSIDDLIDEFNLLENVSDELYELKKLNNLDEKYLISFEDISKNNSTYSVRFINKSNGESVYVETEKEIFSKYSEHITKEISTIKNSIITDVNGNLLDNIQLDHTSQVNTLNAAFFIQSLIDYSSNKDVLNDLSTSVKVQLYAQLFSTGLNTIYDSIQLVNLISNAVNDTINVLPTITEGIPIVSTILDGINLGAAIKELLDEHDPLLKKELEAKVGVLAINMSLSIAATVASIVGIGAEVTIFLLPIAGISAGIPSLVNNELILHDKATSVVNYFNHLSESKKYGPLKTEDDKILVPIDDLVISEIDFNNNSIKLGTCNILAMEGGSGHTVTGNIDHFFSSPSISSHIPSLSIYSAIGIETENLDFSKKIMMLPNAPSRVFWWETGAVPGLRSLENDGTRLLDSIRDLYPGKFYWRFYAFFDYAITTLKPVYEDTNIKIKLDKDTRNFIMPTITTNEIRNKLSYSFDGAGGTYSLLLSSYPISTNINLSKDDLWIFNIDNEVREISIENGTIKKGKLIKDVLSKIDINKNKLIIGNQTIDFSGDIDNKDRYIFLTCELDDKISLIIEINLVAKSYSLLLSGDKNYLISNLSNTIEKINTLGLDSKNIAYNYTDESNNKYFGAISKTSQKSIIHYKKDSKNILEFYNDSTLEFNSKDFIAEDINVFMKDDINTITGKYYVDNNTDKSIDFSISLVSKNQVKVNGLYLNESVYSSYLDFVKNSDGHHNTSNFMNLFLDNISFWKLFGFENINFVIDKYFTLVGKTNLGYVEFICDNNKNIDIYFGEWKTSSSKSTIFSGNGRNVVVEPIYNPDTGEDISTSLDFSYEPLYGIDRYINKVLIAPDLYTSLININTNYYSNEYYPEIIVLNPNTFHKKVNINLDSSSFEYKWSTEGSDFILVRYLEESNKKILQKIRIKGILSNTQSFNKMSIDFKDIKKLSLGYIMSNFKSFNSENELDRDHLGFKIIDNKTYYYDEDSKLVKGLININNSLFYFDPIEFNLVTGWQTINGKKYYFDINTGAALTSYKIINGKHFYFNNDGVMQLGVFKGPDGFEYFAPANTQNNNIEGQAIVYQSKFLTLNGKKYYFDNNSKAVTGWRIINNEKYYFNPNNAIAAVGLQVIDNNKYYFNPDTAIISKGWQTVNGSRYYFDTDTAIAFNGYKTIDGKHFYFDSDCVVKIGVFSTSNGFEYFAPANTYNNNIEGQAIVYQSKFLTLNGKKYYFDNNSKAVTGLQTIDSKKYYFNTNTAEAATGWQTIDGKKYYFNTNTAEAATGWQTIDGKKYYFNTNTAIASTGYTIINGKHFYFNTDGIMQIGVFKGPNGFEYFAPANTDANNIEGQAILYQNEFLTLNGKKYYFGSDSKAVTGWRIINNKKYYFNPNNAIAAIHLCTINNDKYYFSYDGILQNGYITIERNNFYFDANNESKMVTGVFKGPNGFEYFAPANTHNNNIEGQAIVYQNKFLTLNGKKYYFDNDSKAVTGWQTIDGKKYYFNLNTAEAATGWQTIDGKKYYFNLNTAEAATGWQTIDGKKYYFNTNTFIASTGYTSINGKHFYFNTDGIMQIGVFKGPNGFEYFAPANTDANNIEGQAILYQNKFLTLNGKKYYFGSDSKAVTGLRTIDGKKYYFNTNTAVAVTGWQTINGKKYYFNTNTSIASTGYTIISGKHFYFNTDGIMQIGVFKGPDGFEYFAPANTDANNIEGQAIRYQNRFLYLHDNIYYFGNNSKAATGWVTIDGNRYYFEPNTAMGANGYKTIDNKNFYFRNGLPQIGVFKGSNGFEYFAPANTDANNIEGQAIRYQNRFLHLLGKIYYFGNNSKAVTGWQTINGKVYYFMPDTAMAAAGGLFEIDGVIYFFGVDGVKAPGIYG

Molecular target: C. difficile TcdA holotoxin (Clostridioides difficile, UniProt P16154)
Test: [3H] inositol hexakisphosphate binding assay
Set-up: species or system Clostridium difficile
Settings: read-out: equilibrium binding affinity constant (Kd); 3H-InsP6 binding to purified TcdA holotoxin

SMILES: O=P(O)(O)OC1C(OP(=O)(O)O)C(OP(=O)(O)O)C(OP(=O)(O)O)C(OP(=O)(O)O)C1OP(=O)(O)O (stereo not shown) [InsP6, inositol hexakisphosphate]
- Kd: 62.6 nM
